Measured values from several laboratories, pooled; numbers as filed in NIAID ChemDB.

All rows: whole-cell or culture tests; agent: Mycobacterium tuberculosis

Zone: diameter of growth inhibition. Neighbouring rows are from separate reports. Inhibition is in % at the dose shown (toxicity tests: loss of growth or viability). An empty or dashed field is not shown. A number after MIC or MFC names an inhibition level or a share of isolates. ECn is the concentration giving n% inhibition of infection, replication or growth. MIC bound: limit read from a one-dose screen.

compound | strain or isolate | method | measure | dose | result
O=C(Nc1sc(Cc2ccc(OCc3c(Cl)cccc3Cl)cc2)cc1C(=O)O)c1ccccn1 | H37Rv | resazurin | MIC90 |  | 24.7 µM
CCC(C)N1CCN(c2cc(=O)c3nc4c(oc3c2)c2c(=O)c3c(O)c(C)c5c(c34)=C(O)[C@@](C)(O/C=C/[C@H](OC)[C@@H](C)[C@@H](OC(C)=O)[C@H](C)[C@H](O)[C@H](C)[C@@H](O)[C@@H](C)/C=C/C=C(/C)C(=O)N2)O5)CC1 | H37Rv |  | MIC |  | 0.017 µg/mL
O=C(Nc1sc(-c2ccc(OCc3c(Cl)cccc3Cl)cc2)cc1C(=O)O)c1ccccc1 | H37Rv | resazurin | MIC |  | 10.6 µM
S=c1[nH]c2ccccc2c(=S)n1-c1ccc(Br)cc1 | 331/81 |  | MIC |  | 16 µM
O=C1c2ccccc2C(=O)c2c(-c3ccc(Cl)cc3)noc21 | H37Rv | resazurin | MIC bound |  | >6.25 µg/mL
S=c1[nH]c2ccccc2c(=S)n1-c1ccc(Cl)cc1 | 331/81 |  | MIC |  | 32 µM
Oc1cc(O)c2c(c1)OC(c1ccc(O)c(O)c1)C(O)C2O | H37Rv | BACTEC | inhibition | 12.5 µg/mL | -15%
O=C1/C(=C/c2ccc(Cl)cc2)c2ccccc2[C@@]12[C@H](c1ccc(Cl)cc1)C1CCCN1[C@]21C(=O)N(Cc2ccccc2)c2ccccc21 |  | visual reading | MIC |  | 6.25 µg/mL
OC[C@H]1O[C@@H](c2[nH]nc3c(NO)ncnc23)[C@H](O)[C@@H]1O | H37Rv | BACTEC | inhibition | 12.5 µg/mL | 20%
Cc1cc(C)c2c(=O)n(CC(=O)OCCN3CCN(c4ccccc4)CC3)sc2n1 | H37Rv | BACTEC | EC50 |  | >12.5 µg/mL
CN1C(=O)[C@@]2(c3ccccc31)N1CCCC1[C@H](c1ccc(Br)cc1)[C@@]21C(=O)/C(=C/c2ccc(Br)cc2)c2ccccc21 |  | visual reading | MIC |  | 3.125 µg/mL
O=C(Nc1sc(Cc2ccc(OCc3c(Cl)cccc3Cl)cc2)cc1C(=O)O)c1ccco1 | H37Rv | resazurin | MIC90 |  | 28.4 µM
S=c1oc2c(Cl)cc(Cl)cc2c(=S)n1-c1ccc(Br)cc1 | 331/81 |  | MIC |  | 16 µM
Cc1cc(O)c2c(c1)C(=O)c1c(oc3c1c(=O)oc1cccc(C)c13)C2=O | MTCS1 |  | MIC |  | 4.88 µg/mL
COC(=O)c1ccccc1S(=O)(=O)NC(=O)Nc1nc(C)cc(C)n1 | P4145 |  | MIC |  | 12 µM
Cc1cc(C)c2c(OCCCCN3CCN(c4ncccn4)CC3)nsc2n1 | H37Rv | BACTEC | EC50 |  | >12.5 µg/mL
NC(=S)N=Nc1c(O)n(O)c2ccccc12 | H37Rv | BACTEC | MIC bound |  | >12.8 µg/mL
COc1ccc(-c2nn(-c3ccccc3)cc2C2C3=C(NC(C)(c4cc(O)c(I)cc4Cl)NC3=O)Oc3c2c(C)nn3-c2ccccc2)cc1 | MTCC 300 | agar diffusion / agar | zone | 0.1 mg/mL | 2 mm
ONC(=S)N/N=C/c1ccccc1O | H37Rv |  | MIC |  | 25.58 µM
CC(C)N(O)C(=O)C(=O)O | ATCC35801 |  | MIC |  | 1000 µM
Cc1cc(C)c2c(=O)n(CN3CCN(c4ccccc4)CC3)sc2n1 | H37Rv | BACTEC | EC50 |  | >12.5 µg/mL
CN1C(=O)[C@@]2(c3ccccc31)N1CCCC1[C@H](c1ccc(Cl)cc1)[C@@]21C(=O)/C(=C/c2ccc(Cl)cc2)c2ccccc21 |  | visual reading | MIC |  | 12.5 µg/mL
O=C1CSC(c2ccc([N+](=O)[O-])cc2)N1c1nncs1 | H37Rv | BACTEC | MIC bound |  | >12.5 µg/mL
CO[C@H]1/C=C/O[C@@]2(C)Oc3c(C)c(O)c4c(=O)c(c5oc6cc(N7CCN(CC(C)C)CC7)cc(=O)c6nc5c4c3=C2O)NC(=O)/C(C)=C\C=C\[C@H](C)[C@H](O)[C@@H](C)[C@@H](O)[C@@H](C)[C@H](OC(C)=O)[C@@H]1C | H37Rv |  | MIC |  | 0.017 µg/mL
O=C1C=C(N2CC2)c2ccccc2C1=O | H37Rv | resazurin | inhibition | 6.25 µg/mL | 27%
COC(=O)[C@H](CCl)NC(=O)OCc1ccccc1 | H37Rv (ATCC 27294) | resazurin | MIC |  | 50 µg/mL
Cc1nn(-c2ccccc2)c2c1C(c1cn(-c3ccccc3)nc1-c1ccc(Cl)cc1)C1=C(NC(C)(c3cc(O)c(Cl)c(O)c3)NC1=O)O2 | MTCC 300 | agar diffusion / agar | zone | 1 mg/mL | 1.5 mm
CCOP(=O)(CCC(=O)[C@H]1CC[C@H]2[C@@H]3CC=C4C[C@@H](OC(C)=O)CC[C@]4(C)[C@H]3CC[C@]12C)OCC | H37Rv | resazurin | MIC bound |  | >6.25 µg/mL
S=c1oc2c(Cl)cc(Cl)cc2c(=S)n1-c1cccc(Cl)c1 | 331/81 |  | MIC |  | 4 µM
COc1cccc2c1[n+]([O-])c1cccc(O)c1[n+]2[O-] | H37Rv | BACTEC | MIC bound |  | ≤128 µg/mL
O=C1/C(=C/c2ccc(Cl)cc2)c2ccccc2[C@@]12[C@H](c1ccc(Cl)cc1)C1CCCN1[C@]21C(=O)Nc2ccccc21 |  | visual reading | MIC |  | >25 µg/mL
CO[C@H]1/C=C/O[C@@]2(C)Oc3c(C)c(O)c4c(O)c(c(/C=N/N5CCN(C)CC5)c(O)c4c3C2=O)NC(=O)/C(C)=C\C=C\[C@H](C)[C@H](O)[C@@H](C)[C@@H](O)[C@@H](C)[C@H](OC(C)=O)[C@@H]1C | H37Rv |  | MIC |  | 0.6 µg/mL
CCCCNc1sc(-c2ccc(OCc3c(Cl)cccc3Cl)cc2)cc1C(=O)O | H37Rv | resazurin | EC50 |  | 35.56 µM
C#CCN1C(=O)[C@@]2(c3ccccc31)N1CCCC1[C@H](c1ccc(OC)cc1)[C@@]21C(=O)/C(=C/c2ccc(OC)cc2)c2ccccc21 |  | visual reading | MIC |  | 3.13 µg/mL
CC(C)c1ccc(NC(=S)c2cccc([N+](=O)[O-])c2)cc1 | My 331/88 |  | MIC |  | 62.5 µM
O=C(O)c1cn(C2CC2)c2c(Cl)c(N3C[C@@H]4CCCN[C@@H]4C3)c(F)cc2c1=O | 82 strains |  | MIC50 |  | 0.01 µg/mL
CCC(C)N(/C=N/N=C/c1c2c(O)c3c(O)c(C)c4c(c3c1O)C(=O)[C@@](C)(O/C=C/[C@H](OC)[C@@H](C)[C@@H](OC(C)=O)[C@H](C)[C@H](O)[C@H](C)[C@@H](O)[C@@H](C)/C=C/C=C(/C)C(=O)N2)O4)C(C)CC | H37Rv |  | MIC |  | 0.04 µg/mL
COc1cc2oc3cc(=O)cc4oc(-c5ccccc5)cc(c2c2c1CCC(c1ccccc1)O2)c43 | H37Rv | BACTEC | inhibition | 12.5 µg/mL | 10%
O=C1/C(=C/c2ccc(Cl)cc2)c2ccccc2[C@]12[C@@H](c1ccc(Cl)cc1)C1CCCN1[C@]21C(=O)Nc2ccccc21 |  | visual reading | MIC |  | 6.25 µg/mL
O=C(Nc1sc(-c2ccc(OCc3c(Cl)cccc3Cl)cc2)cc1C(=O)O)c1ccccn1 | H37Rv | resazurin | EC50 |  | >128 µM
Cc1cc(C)c2c(n1)S(=O)(=O)N(C/C=C/CN1CCN(c3ncccn3)CC1)C2=O | H37Rv | BACTEC | EC50 |  | >12.5 µg/mL
O=C(/C=C/c1ccccc1)OCC1=CC(O)[C@@H]2C=CO[C@@H](O[C@@H]3O[C@H](CO)[C@@H](O)[C@H](O)[C@H]3O)[C@H]12 | H37Rv | BACTEC | inhibition | 12.5 µg/mL | 11%
COc1ccccc1N1CCN(CCCCn2sc3nc(C)cc(C)c3c2=O)CC1 | H37Rv | BACTEC | inhibition | 12.5 µg/mL | 100%
CO[C@H]1/C=C/O[C@@]2(C)Oc3c(C)c(O)c4c(O)c(c(/C=N/N=C/N5CCCC5)c(O)c4c3C2=O)NC(=O)/C(C)=C\C=C\[C@H](C)[C@H](O)[C@@H](C)[C@@H](O)[C@@H](C)[C@H](OC(C)=O)[C@@H]1C | H37Rv |  | MIC |  | 0.01 µg/mL
O=C(Nc1sc(Cc2ccc(OCc3c(Cl)cccc3Cl)cc2)cc1C(=O)O)c1ccccc1 | H37Rv | resazurin | MIC90 |  | 15.7 µM
CCOC(=O)C(NC(=O)CC)(N1CCN(c2cc3c(cc2F)c(=O)c(C(=O)O)cn3C2CC2)CC1)C(F)(F)F | H37Rv | resazurin | MIC |  | 0.78 µg/mL
CCCCCNc1sc(-c2ccc(OCc3c(Cl)cccc3Cl)cc2)cc1C(=O)O | H37Rv | resazurin | MIC |  | 15.1 µM
CC1(Cl)C(=O)NN=C1c1ccc([N+](=O)[O-])cc1 | H37Rv | BACTEC | inhibition | 12.5 µg/mL | 33%
C[C@H]1NCc2cc(-c3ccc4c(=O)c(C(=O)O)cn(C5CC5)c4c3OC(F)F)ccc21 | 10 strains |  | MIC90 |  | 2 µg/mL
O=C(Nc1sc(Cc2ccc(OCc3c(Cl)cccc3Cl)cc2)cc1C(=O)O)c1ccc(Cl)cc1 | H37Rv | resazurin | MIC90 |  | 1.9 µM
O=C(NCCCl)N1CCC(CN=c2cc3n(-c4ccc(Cl)cc4)c4ccccc4nc-3cc2Nc2ccc(Cl)cc2)CC1 | TAC-R |  | MIC |  | 0.1 µg/mL
COc1nc(C)nc(NC(=O)NS(=O)(=O)c2ccccc2Cl)n1 | T13704 |  | MIC |  | 31 µM
CCCCc1ccc(NC(=S)c2cccc(Br)c2)cc1 | My 331/88 |  | MIC |  | 32 µM
O=C(O)c1cc(-c2ccc(OCc3c(Cl)cccc3Cl)cc2)sc1NCc1ccc(Cl)cc1 | H37Rv | resazurin | EC50 |  | >128 µM
CCCCC(=O)N/N=C/c1ccc(N(C)C)cc1Cl | H37Rv | BACTEC | inhibition | 12.5 µg/mL | 66%
COc1c(O)c2c(c(C)c1C(=O)C=C(C)C)Oc1c(C=O)c(O)c(Cl)c(C)c1C(=O)O2 |  |  | MIC |  | 39.7 µg/mL
CC1COc2c(N3CCN(C)CC3)c(F)cc3c(=O)c(C(=O)O)cn1c23 | 10 strains |  | MIC50 |  | 2 µg/mL
C/C=C/c1ccc2oc(-c3ccc(OC)c(OC)c3)c(C)c2c1 | Clinical isolate 13 638 | resazurin / absorbance | MIC |  | 3.9 µg/mL
COc1ccc(C(=O)Nc2sc(-c3ccc(OCc4c(Cl)cccc4Cl)cc3)cc2C(=O)O)cc1 | H37Rv | resazurin | MIC |  | >64 µM
O=c1ccn([C@H]2C[C@H](O)[C@@H](CO)O2)c(=O)[nH]1 | H37Rv | BACTEC | MIC |  | ≥128 µg/mL
CO[C@H]1/C=C/O[C@@]2(C)Oc3c(C)c(O)c4c(O)c(c(/C=N/N5CCN(C)CC5)c(O)c4c3C2=O)NC(=O)/C(C)=C\C=C\[C@H](C)[C@H](O)[C@@H](C)[C@@H](O)[C@@H](C)[C@H](OC(C)=O)[C@@H]1C | H37Rv | resazurin / absorbance | MIC90 |  | 0.02 µg/mL
N#Cc1nc(/C=C/c2ccc3c(c2)OCO3)cnc1N | H37Rv | BACTEC | inhibition | 12.5 µg/mL | 14%
CCCCc1ccc(NC(=S)c2cccc([N+](=O)[O-])c2)cc1 | My 331/88 |  | MIC |  | 32 µM
Cc1ccc(-n2c(=O)c3nn4c(=O)n(-c5ccc(C)cc5)c(=O)c4nn3c2=O)cc1 | H37Rv | BACTEC | MIC bound |  | >12.5 µg/mL
CO[C@H]1/C=C/O[C@@]2(C)Oc3c(C)c(O)c4c(O)c(c(/C=N/N=C/N(C)Cc5ccccc5)c(O)c4c3C2=O)NC(=O)/C(C)=C\C=C\[C@H](C)[C@H](O)[C@@H](C)[C@@H](O)[C@@H](C)[C@H](OC(C)=O)[C@@H]1C | H37Rv |  | MIC |  | 0.04 µg/mL
CN1C(=O)C(=O)N(Cc2ccc(CN3C(=O)C(=O)N(C)C3=O)cc2)C1=O | H37Rv | BACTEC | inhibition | 12.5 µg/mL | 0%
S=C(Nc1ccc(C2CCCCC2)cc1)c1cccc(Cl)c1 | My 331/88 |  | MIC |  | 32 µM
Cc1cc(C)c2c(=O)n(CCCN3CCN(c4cccc(Cl)c4)CC3)sc2n1 | H37Rv | BACTEC | EC50 |  | <12.5 µg/mL
COc1ccccc1NC(=S)S | H37Rv | BACTEC | inhibition | 12.5 µg/mL | 42%
CCCCc1ccc(NC(=S)c2cccc(Cl)c2)cc1 | My 331/88 |  | MIC |  | 32 µM
CCn1c2ccc([N+](=O)[O-])cc2c2c([N+](=O)[O-])c(NC=O)ccc21 | H37Rv | BACTEC | MIC bound |  | >12.5 µg/mL
O=[N+]([O-])c1cn2c(n1)OC[C@@H](OC/C=C/c1ccc(-c3ccc(C(F)(F)F)nc3)cc1)C2 | H37Rv | resazurin | MIC |  | 2 µM

7 of the rows above, restated:

compound	strain or isolate	method	measure	dose	result
NC(=S)N=Nc1c(O)n(O)c2ccccc12	H37Rv	BACTEC	MIC bound		>12.8 µg/mL
O=C(Nc1sc(Cc2ccc(OCc3c(Cl)cccc3Cl)cc2)cc1C(=O)O)c1ccc(Cl)cc1	H37Rv	resazurin	MIC90		1.9 µM
COc1ccc(-c2nn(-c3ccccc3)cc2C2C3=C(NC(C)(c4cc(O)c(I)cc4Cl)NC3=O)Oc3c2c(C)nn3-c2ccccc2)cc1	MTCC 300	agar diffusion / agar	zone	0.1 mg/mL	2 mm
COc1cccc2c1[n+]([O-])c1cccc(O)c1[n+]2[O-]	H37Rv	BACTEC	MIC bound		≤128 µg/mL
S=c1oc2c(Cl)cc(Cl)cc2c(=S)n1-c1cccc(Cl)c1	331/81		MIC		4 µM
COc1ccc(C(=O)Nc2sc(-c3ccc(OCc4c(Cl)cccc4Cl)cc3)cc2C(=O)O)cc1	H37Rv	resazurin	MIC		>64 µM
Cc1cc(C)c2c(=O)n(CC(=O)OCCN3CCN(c4ccccc4)CC3)sc2n1	H37Rv	BACTEC	EC50		>12.5 µg/mL